From patent US20070004649A1, “Anti-influenza virus compound comprising biflavonoid-sialic acid glycoside” (The Kitasato Institute, priority 2003, published 2007)

The chains behind the UniProt entries cited, without tags or fusion partners.
UniProt P03468, whole entry: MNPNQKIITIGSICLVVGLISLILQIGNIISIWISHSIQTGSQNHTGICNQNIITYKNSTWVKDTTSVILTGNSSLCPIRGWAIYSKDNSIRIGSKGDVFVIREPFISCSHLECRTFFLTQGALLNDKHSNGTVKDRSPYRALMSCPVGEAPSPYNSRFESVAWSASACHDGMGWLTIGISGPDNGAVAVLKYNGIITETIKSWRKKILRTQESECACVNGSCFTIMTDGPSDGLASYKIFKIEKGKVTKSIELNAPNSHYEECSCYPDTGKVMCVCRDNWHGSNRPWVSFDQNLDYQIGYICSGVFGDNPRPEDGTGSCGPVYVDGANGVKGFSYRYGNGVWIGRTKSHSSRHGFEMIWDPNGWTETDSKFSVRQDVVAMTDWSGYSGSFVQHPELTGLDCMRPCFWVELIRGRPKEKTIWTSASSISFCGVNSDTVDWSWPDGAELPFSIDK

Target: A/PR/8/34 virus sialidase (Influenza A virus, UniProt P03468)
Experiment: Inhibitory activity against influenza A/PR/8/34 virus sialidase (4-MU-NeuAc substrate, HA vaccine as enzyme)
Format: biochemical, influenza virus A/PR/8/34 (H1N1 subtype)

(R)-7″-O-(N-acetylneuraminyl)-7,4-di-O-methylamentoflavone [Gin-Neu-1-(R)]
50% inhibitory concentration (IC50), A/PR/8/34 virus sialidase: 5 µg/mL
